Assay [1] relates to Plasmodium falciparum. Kind of assay: Antimalarial activity against Plasmodium falciparum K1. Type of assay: functional, organism-based.
The test system of assay [2] is Plasmodium falciparum. Kind of assay: Antimalarial activity against Plasmodium falciparum NF54. It counts as functional, organism-based.
In assay [3] the test system is Plasmodium falciparum. The assay can be described thus: Antimalarial activity against Plasmodium falciparum D6.
In assay [4] the test system is Plasmodium falciparum. Kind of assay: Antimalarial activity against Plasmodium falciparum W2.

The structures appear in SMILES notation. ≈ marks a conversion by molar mass, not a printed value.

Usually IC50 stands for the point on the concentration scale where inhibition reaches its midpoint. Low readings indicate inhibition by little substance, high ones a need for much substance. On to `C1CC2(CCO1)OOC1(CCOCC1)OOC1(CCOCC1)OO2`, for which the IC50 in assay [1] and in assay [2] was greater than 10 µg/mL in each case.
Turning to `C1CCC2(C1)OOC1(CCCC1)OOC1(CCCC1)OO2`, the IC50 in assay [1] and in assay [2] was greater than 10 µg/mL each time.
As to `C1CCC2(CC1)OOC1(CCCCC1)OO2`, the IC50 in assay [3] is 0.026 µg/mL (≈ 0.114 µM); in assay [1] it was 0.03 µg/mL (≈ 0.131 µM); in assay [4] it was 0.02 µg/mL (≈ 0.0876 µM); in assay [2] it was 0.044 µg/mL (≈ 0.193 µM).
With `CCCC1(CCC)OOC(CCC)(CCC)OOC(CCC)(CCC)OO1`, the half-maximal inhibitory concentration (IC50) in assay [1] is 7.4 µg/mL (≈ 18.9 µM); in assay [2], greater than 5.5 µg/mL.
For `C1CCC2(CC1)OOC1(CCCCC1)OOC1(CCCCC1)OO2`, in that order: 0.77 µg/mL (≈ 2.25 µM) and 2.7 µg/mL (≈ 7.88 µM).
For `C1CCCC2(CC1)OOC1(CCCCCC1)OOC1(CCCCCC1)OO2`, in that order: 2 µg/mL (≈ 5.2 µM) and 3.2 µg/mL (≈ 8.32 µM).
